Source: patent US20080318326A1 (priority 2005, published 2008)

Tests used:
[1] = test system: sodium ion channel proteins; test: Sodium ion channel currents in bilayer on preloaded nylon support matrix; assay type: biochemical; conditions: nylon support matrix preloaded with sodium channel proteoliposomes; FIGS. 11a-11d
sodium ion channels = test: Sodium ion channel currents in bilayer reformed on preloaded support matrix stored 80 days; conditions: PTFE matrix preloaded 80 days earlier; before application approximately 5 pA
[2] = test system: Na+ ion channels (voltage gated sodium ion channels); test: Sodium ion channel currents in filter supported bilayer lipid membrane; assay type: biochemical; conditions: channels with veratridine, FIG. 7

NC1=N[C@H](O)[C@H]2[C@H]3O[C@]4(O)O[C@@H]([C@@H](O)[C@@]2(N1)[C@@H]4O)[C@]3(O)CO
current measured after application [1]: less current observed
individual current transitions following application (sodium ion channels): approximately 2 pA
effect on sodium channel current ([2]; 15 minutes after application of 200 μmolar): decreased to the level measured for the blank membrane
effect on sodium channel current ([2]; shortly after application of 200 μmolar): reduction in current
